Test results: publication PMC5773577 (Scientific Reports, 2018)
Strings that start with PEPTIDE1 are HELM notation: dots part the residues, brackets hold end groups and non-standard residues.

Experiment: general procedure: Fmoc solid-phase peptide synthesis; Rink amide-MBHA resin (loading 0.59 mmol/g); DIPCDI, HOBt
Conditions: whole synthesis, RP-HPLC area under the peak

PEPTIDE1{R.W.[12ADO].W.R.[am]}$$$$V2.0
final HPLC purity: 96%

PEPTIDE1{R.[D1Nal].[8AOA].[D1Nal].R.[am]}$$$$V2.0
final HPLC purity: 94%

PEPTIDE1{R.[D1Nal].[12ADO].[D1Nal].R.[am]}$$$$V2.0
final HPLC purity: 96%

PEPTIDE1{W.R.W.R.W.[am]}$$$$V2.0
final HPLC purity: 97%

PEPTIDE1{W.R.[2trifluoromethylDPhe].R.W.[am]}$$$$V2.0
final HPLC purity: 90%

PEPTIDE1{W.R.[8AOA].R.W.[am]}$$$$V2.0
final HPLC purity: 91%

PEPTIDE1{W.R.[12ADO].R.W.[am]}$$$$V2.0
final HPLC purity: 95%

PEPTIDE1{W.R.[D1Nal].R.W.[am]}$$$$V2.0
final HPLC purity: 99%

PEPTIDE1{W.R.[F5-Phe].R.W.[am]}$$$$V2.0
final HPLC purity: 98%
